# PSTVd loop 15 mutant pool in Nicotiana benthamiana

The pool varies loop 15 of the PSTVd intermediate strain in the pattern GGAAACCGNNNNNNC; wild type is GGAAACCGCUACUAC (upper and lower strand joined, each 5' to 3', the first 7 letters being the upper strand, closing pairs included).

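A pool of all variants was put on leaves of three Nicotiana benthamiana plants. Samples came from the inoculated region at 5 days, the leaf margin at 10 and upper systemic leaves at 12.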

Values are reads per thousand in the sample; higher means more abundant, 0 means not found.
Each value is the mean of three plants.
"Pool" is the share in the plasmid pool used as inoculum, on the same scale.
The inoculated region was read from the minus strand, the other sites from the plus strand.
IR is the inoculated region, LM the leaf margin, Sys the systemic leaves.
Sequences that differ at fixed positions probably stem from PCR or sequencing errors, and defective variants can be carried along by functional ones.
Wild type was 33.9 per thousand in the pool and the most common sequence in every sample (inoculated region 202, 200, 159; leaf margin 724, 746, 710; systemic leaves 856, 883, 880).
Samples held 43,870 to 66,106 reads, so the smallest values rest on one or two reads.

| # | sequence | pool | IR | LM | Sys |
|---|---|---|---|---|---|
| 1 | GGAAACCGAAAGCGC | 0.272 | 0.0920 | 0 | 0 |
| 2 | GGAAACCGAAAUACC | 0.208 | 0.129 | 0.00742 | 0 |
| 3 | GGAAACCGAAGAUUC | 0.272 | 0.392 | 0.0121 | 0.00537 |
| 4 | GGAAACCGAAUAUGC | 0.160 | 0.137 | 0.0134 | 0 |
| 5 | GGAAACCGAAUUCCC | 0.320 | 0.121 | 0.0134 | 0 |
| 6 | GGAAACCGACAGACC | 0.224 | 0.0978 | 0.0121 | 0 |
| 7 | GGAAACCGACAUUUC | 0.368 | 0.390 | 0.0928 | 0.0670 |
| 8 | GGAAACCGACCACGC | 0.272 | 0.0868 | 0.0134 | 0.00537 |
| 9 | GGAAACCGACCCCAC | 0.208 | 0.140 | 0.0134 | 0 |
| 10 | GGAAACCGACCUUCC | 0.288 | 0.114 | 0.00668 | 0.00537 |
| 11 | GGAAACCGACGCGCC | 0.240 | 0.119 | 0.00539 | 0 |
| 12 | GGAAACCGACGGGAC | 0.336 | 0.0759 | 0.0148 | 0 |
| 13 | GGAAACCGAGCUGUC | 0.176 | 0.0450 | 0.0182 | 0 |
| 14 | GGAAACCGAGUAACC | 0.272 | 0.0885 | 0.00668 | 0 |
| 15 | GGAAACCGAGUAGCC | 0.160 | 0.0904 | 0.0195 | 0 |
| 16 | GGAAACCGAGUAGGC | 0.240 | 0.144 | 0.00668 | 0 |
| 17 | GGAAACCGAGUGGUC | 0.192 | 0.104 | 0.00742 | 0 |
| 18 | GGAAACCGAGUUUAC | 0.192 | 0.114 | 0.0121 | 0 |
| 19 | GGAAACCGAUAGGCC | 0.240 | 0.116 | 0 | 0.00760 |
| 20 | GGAAACCGAUCUGGC | 0.208 | 0.147 | 0.0134 | 0.00537 |
| 21 | GGAAACCGAUUCCUC | 0.0640 | 0.157 | 0 | 0 |
| 22 | GGAAACCGCACAUGC | 0.144 | 0.0848 | 0.0134 | 0 |
| 23 | GGAAACCGCAGGUAC | 0.368 | 0.283 | 0.118 | 0.0417 |
| 24 | GGAAACCGCAUCACC | 0.224 | 0.135 | 0.00742 | 0 |
| 25 | GGAAACCGCAUUCUC | 0.240 | 0.0720 | 0.0141 | 0.00537 |
| 26 | GGAAACCGCCAAUAC | 0.448 | 0.287 | 0.0826 | 0.0464 |
| 27 | GGAAACCGCCACCGC | 0.240 | 0.0981 | 0.00539 | 0.00537 |
| 28 | GGAAACCGCCAGAGC | 0.272 | 0.247 | 0.0705 | 0.0215 |
| 29 | GGAAACCGCCGAUUC | 0.160 | 0.345 | 0.117 | 0.0386 |
| 30 | GGAAACCGCCGCAUC | 0.112 | 0.347 | 0.0275 | 0.00537 |
| 31 | GGAAACCGCCGUCUC | 0.224 | 0.862 | 0.00668 | 0.00537 |
| 32 | GGAAACCGCGCUGCC | 0.384 | 0.0681 | 0.00742 | 0 |
| 33 | GGAAACCGCGGACGC | 0.352 | 0.0795 | 0.00668 | 0 |
| 34 | GGAAACCGCGUGGCC | 0.208 | 0.106 | 0.0187 | 0 |
| 35 | GGAAACCGCUAUACC | 0.160 | 0.0796 | 0 | 0 |
| 36 | GGAAACCGCUAUUCC | 0.224 | 0.274 | 0.0993 | 0.00537 |
| 37 | GGAAACCGGACCAUC | 0.320 | 0.154 | 0 | 0.00537 |
| 38 | GGAAACCGGAGAACC | 0.208 | 0.100 | 0.0128 | 0 |
| 39 | GGAAACCGGAGCCGC | 0.224 | 0.0984 | 0.00668 | 0 |
| 40 | GGAAACCGGAGGAGC | 0.192 | 0.0856 | 0.0141 | 0 |
| 41 | GGAAACCGGAGUGUC | 0.224 | 0.0803 | 0.00539 | 0.00537 |
| 42 | GGAAACCGGAUCAUC | 0.336 | 0.0703 | 0.00668 | 0 |
| 43 | GGAAACCGGCAGCGC | 0.160 | 0.101 | 0.00742 | 0.00537 |
| 44 | GGAAACCGGCAUAUC | 0.240 | 0.109 | 0 | 0 |
| 45 | GGAAACCGGCAUCCC | 0.304 | 0.0796 | 0 | 0 |
| 46 | GGAAACCGGCCCGAC | 0.272 | 0.0751 | 0.0121 | 0 |
| 47 | GGAAACCGGCGUAAC | 0.192 | 0.0677 | 0.0121 | 0 |
| 48 | GGAAACCGGCUGAAC | 0.240 | 0.108 | 0.0187 | 0.00537 |
| 49 | GGAAACCGGGAGUGC | 0.224 | 0.269 | 0.0813 | 0.0357 |
| 50 | GGAAACCGGGAUGUC | 0.336 | 0.0760 | 0.0175 | 0.00537 |
| 51 | GGAAACCGGGGAUCC | 0.192 | 0.107 | 0.0175 | 0 |
| 52 | GGAAACCGGGUGCGC | 0.256 | 0.0999 | 0 | 0 |
| 53 | GGAAACCGUACCUAC | 0.288 | 0.401 | 0.148 | 0.0642 |
| 54 | GGAAACCGUACGGAC | 0.256 | 0.338 | 0.200 | 0.0215 |
| 55 | GGAAACCGUACUGAC | 0.240 | 0.104 | 0.00668 | 0 |
| 56 | GGAAACCGUAGAACC | 0.240 | 0.0323 | 0.0195 | 0.00760 |
| 57 | GGAAACCGUAGACGC | 0.208 | 0.0616 | 0.0316 | 0 |
| 58 | GGAAACCGUCAACAC | 0.336 | 0.435 | 0.115 | 0.0411 |
| 59 | GGAAACCGUCAUUUC | 0.160 | 0.370 | 0.0993 | 0.0382 |
| 60 | GGAAACCGUCGCAUC | 0.256 | 0.155 | 0.0249 | 0 |
| 61 | GGAAACCGUCGUCGC | 0.240 | 0.0524 | 0 | 0 |
| 62 | GGAAACCGUCUCACC | 0.288 | 0.0820 | 0 | 0.00537 |
| 63 | GGAAACCGUGACCCC | 0.0960 | 0.0940 | 0.00539 | 0 |
| 64 | GGAAACCGUGCACAC | 0.368 | 0.114 | 0.0134 | 0 |
| 65 | GGAAACCGUGCCCCC | 0.320 | 0.0739 | 0 | 0 |
| 66 | GGAAACCGUGUACGC | 0.272 | 0.125 | 0 | 0 |
| 67 | GGAAACCGUGUCCAC | 0.240 | 0.0796 | 0.0182 | 0 |
| 68 | GGAAACCGUGUUAAC | 0.336 | 0.173 | 0.0134 | 0.00537 |
| 69 | GGAAACCGUGUUAUC | 0.112 | 0.107 | 0.0200 | 0 |
| 70 | GGAAACCGUUACGCC | 0.128 | 0.0915 | 0.0141 | 0.00760 |
| 71 | GGAAACCGUUCUACC | 0.176 | 0.0794 | 0 | 0 |
| 72 | GGAAACCGUUGACAC | 0.240 | 0.0847 | 0 | 0 |
| 73 | GGAAACCGUUUCACC | 0.288 | 0.114 | 0.00539 | 0.00537 |
| 74 | GGAAACCGUUUGCGC | 0.160 | 0.110 | 0.0228 | 0 |

7 of these entries, quoted again:

* GGAAACCGAGUAGCC (pool 0.160): IR 0.0904; LM 0.0195; Sys 0
* GGAAACCGACGGGAC (pool 0.336): IR 0.0759; LM 0.0148; Sys 0
* GGAAACCGGAGAACC (pool 0.208): IR 0.100; LM 0.0128; Sys 0
* GGAAACCGCAUUCUC (pool 0.240): IR 0.0720; LM 0.0141; Sys 0.00537
* GGAAACCGGCAGCGC (pool 0.160): IR 0.101; LM 0.00742; Sys 0.00537
* GGAAACCGAAAUACC (pool 0.208): IR 0.129; LM 0.00742; Sys 0
* GGAAACCGGGAGUGC (pool 0.224): IR 0.269; LM 0.0813; Sys 0.0357

Data from the supplement of Wu et al. 2024, doi:10.1371/journal.ppat.1012142.